Test results: article PMC6668326

Tests used:
[1] = test system: Egr-1 (recombinant); test: EMSA; details: commercial probe, HSV-1 30mer competed; not stated; EMSA according to the manufacturers' protocols (Signosis, Sigma Aldrich), 40x cold competitor; commercial protein; label: 32P end label
[2] = test system: Sp1 (recombinant); test: EMSA; details: labeled commercial probe; not stated; EMSA according to the manufacturers' protocols (Signosis, Sigma Aldrich), 40x cold competitor; commercial protein; label: 32P end label (unlabeled as competitor)

Sequence: ATCCAGCGGGGGCAGCGGGGGCGA (double strand) [commercial Egr-1 oligonucleotide]
- binding result [1]: binds

Sequence: ATTCGATCGGGGCGGGGCGACTGAT (double strand) [commercial Sp1 oligonucleotide]
- binding result [2]: binds

The exact form of at least one protein or probe is not confirmed. At least one verdict rests on a figure or table, not on a statement of the authors.
